Experimental data as given in patent publication US7968752B2, “Hydrolytically-resistant boron-containing therapeutics and methods of use” (Anacor Pharmaceuticals, Inc., priority 2003, dated 2011).
No dose or concentration is given here for some results.

System: 17D strain YFV virus
Type: cell-based, Yellow Fever (YFV)
Details: TC50/IC50

SMILES | Anti-Yellow Fever Activity Antiviral Index
Fc1ccc2c(c1)COB2c1cccc(Cl)c1 [Compound 11, 1-(3-Chlorophenyl)-5-fluoro-1,3-dihydrobenzo[c][1,2]oxaborole] | 6.38
Fc1cccc(B2OCc3cc(Cl)ccc32)c1 [Compound 13, 5-Chloro-1-(3-Fluorophenyl)-1,3-dihydrobenzo[c][1,2]oxaborole] | 4.48
N#Cc1cccc(B2OCc3ccccc32)c1 [Compound 14, 3-(Benzo[c][1,2]oxaborol-1(3H)-yl)benzonitrile] | 14.91
Fc1ccc2c(c1)B(c1cccc(Cl)c1)OC2 [Compound 15, 1-(3-Chlorophenyl)-6-fluoro-1,3-dihydrobenzo[c][1,2]oxaborole] | 5.53
Clc1ccc(B2OCc3ccccc32)cc1 [Compound 17, 1-(4-Chlorophenyl)-1,3-dihydrobenzo[c][1,2]oxaborole] | 4.11
N#Cc1ccc(B2OCc3ccccc32)cc1 [Compound 18, 4-(Benzo[c][1,2]oxaborol-1(3H)-yl)benzonitrile] | 8.91
N#Cc1cccc(B2OCc3cc(F)ccc32)c1 [Compound 20, 3-(5-Fluorobenzo[c][1,2]oxaborol-1(3H)-yl)benzonitrile] | 12.98
N#Cc1cccc(B2OCc3ccc(F)cc32)c1 [Compound 21, 3-(6-Fluorobenzo[c][1,2]oxaborol-1(3H)-yl)benzonitrile] | 6.72
